Measured values from several laboratories, pooled; numbers as filed in NIAID ChemDB.

Shared fields: enzyme or target tests

Two numbers with a dash give a range or band. An empty or dashed field is not shown. Percent inhibition refers to the dose given; in toxicity tests it is the harm to the cells. ICn is the concentration giving n% inhibition. Lines come from different laboratories, so protocols vary.

smiles,protein,strain,measure,tested at,method,species,result
CC(C)(CCCCNC(=O)O[C@@H]1CCOC1)CN(C[C@@H](O)[C@H](Cc1ccccc1)NC(=O)O[C@H]1CO[C@H]2OCC[C@H]21)S(=O)(=O)c1ccc2c(c1)OCO2,Protease,-,Ki,-,fluorescence,HIV-1,<0.001 µM
O=C(Nc1cccc(-c2nc(O)c(O)c(C(=O)O)n2)c1)Nc1cccc(-c2nc(O)c(O)c(C(=O)O)n2)c1,HCV polymerase,-,IC50,-,-,Hepatitis C virus,<100 µM
COCCNC(=O)c1cn2ccn(Cc3cccc(Cl)c3)c(=O)c2c(O)c1=O,Integrase,-,IC50,-,ELISA,HIV-1,0.01–0.1 µM
CCOC(=O)NCCC(C)(C)CN(C[C@@H](O)[C@H](Cc1ccccc1)NC(=O)O[C@H]1CO[C@H]2OCC[C@H]21)S(=O)(=O)c1ccc(N)cc1,Protease,-,Ki,-,fluorescence,HIV-1,<0.001 µM
Nc1nc(-c2ccc(NC(=O)CN(Cc3ccncc3)C(=O)C3CCCCC3)cc2)cs1,Helicase,-,IC50,-,-,Herpes simplex virus 1,0.1 µM
O=C(O)c1nc(-c2ccsc2C(=O)O)[nH]c(=O)c1O,HCV polymerase,-,IC50,-,-,Hepatitis C virus,<25 µM
CC(=O)N(Cc1ccccc1C)c1cc(-c2ccccc2)sc1C(=O)O,NS3 ATPase,-,IC50,-,-,Hepatitis C virus,>20 µM
c1cc(N2CCN(c3cncc(-c4ccsc4)n3)CC2)ccn1,UL97 kinase,-,inhibition,1 µM,-,Cytomegalovirus,<50%
O=C(O)c1cnn2c(C3CCCCC3)c(-c3ccc(I)cc3)cnc12,RNA-dependent RNA polymerase,-,IC50,-,-,Hepatitis C virus,1–10 µM
O=C(NCc1ccccc1)Nc1ccccc1-c1nc(C(=O)O)c(O)c(=O)[nH]1,HCV polymerase,-,IC50,-,-,Hepatitis C virus,<100 µM
O=c1ccn2c(CCCO)cn(Cc3ccc(Cl)c(Cl)c3)c(=O)c2c1O,Integrase,-,IC50,-,ELISA,HIV-1,0.01–0.1 µM
O=C(NCc1cccnc1)Nc1cscc1-c1nc(C(=O)O)c(O)c(=O)[nH]1,HCV polymerase,-,IC50,-,-,Hepatitis C virus,<25 µM
COc1ccc(S(=O)(=O)N(CCCCC2(C)OCCO2)C[C@@H](O)[C@H](Cc2ccccc2)NC(=O)O[C@H]2CCOC2)cc1,Protease,-,Ki,-,fluorescence,HIV-1,0.001–0.01 µM
O=C(NCc1ccc(Cl)c(Cl)c1)Nc1cccc(-c2nc(C(=O)O)c(O)c(=O)[nH]2)c1,HCV polymerase,-,IC50,-,-,Hepatitis C virus,<100 µM
CC(C)(C)c1ccc(-n2nnnc2SCC(=O)Nc2ccc(-c3ccc(OCCN4CCC(O)CC4)cc3)cc2Cl)c(Cl)c1,Reverse transcriptase,WT,IC50,-,PicoGreen / fluorescence,HIV-1,<1 µM
CN(C(=O)c1cc(Cl)cc(Cl)c1)c1cc(-c2ccccc2)sc1C(=O)O,NS3 ATPase,-,IC50,-,-,Hepatitis C virus,5–20 µM
COc1ccc(S(=O)(=O)N(C[C@@H](O)[C@H](Cc2ccccc2)NC(=O)O[C@H]2CO[C@H]3OCC[C@H]32)CC(C)(C)CCC(C)=O)cc1,Protease,-,Ki,-,fluorescence,HIV-1,<0.001 µM
O=C(O)c1cc2nc(-c3ccc(Cl)cc3)cc(Nc3ccc(Oc4ccccc4)cc3)n2n1,RNA-dependent RNA polymerase,-,IC50,-,-,Hepatitis C virus,>10 µM
O=C(O)CP(=O)(O)O,DNA polymerase,-,IC50,-,-,Epstein-Barr virus,2.3 µg/mL
COc1ccc(S(=O)(=O)NC(=O)Nc2cscc2-c2nc(C(=O)O)c(O)c(=O)[nH]2)cc1,HCV polymerase,-,IC50,-,-,Hepatitis C virus,<25 µM
CC(C)(CCOC(=O)Oc1ccc([N+](=O)[O-])cc1)CN(C[C@@H](O)[C@H](Cc1ccccc1)NC(=O)O[C@H]1CO[C@H]2OCC[C@H]21)S(=O)(=O)c1ccc2c(c1)OCO2,Protease,-,Ki,-,fluorescence,HIV-1,<0.001 µM
NNC(=O)c1ccncc1,NADH oxidase,H37Rv,IC50,-,-,Mycobacterium tuberculosis,>1000 µM
CNOC(=O)CNC(=O)NCCC(C)(C)CN(C[C@@H](O)[C@H](Cc1ccccc1)NC(=O)O[C@H]1CO[C@H]2OCC[C@H]21)S(=O)(=O)c1ccc(OC)cc1,Protease,-,Ki,-,fluorescence,HIV-1,<0.001 µM
O=C(Nc1ccsc1-c1nc(C(=O)O)c(O)c(=O)[nH]1)c1ccccc1Cl,HCV polymerase,-,IC50,-,-,Hepatitis C virus,<25 µM
O=C(O[C@@H]1O[C@@H]2COC(=O)c3cc4c(O)c(O)c3-c3c(cc(O)c(O)c3O)C(=O)O[C@H]2[C@H](OC(=O)c2cc(O)c(O)c(O)c2)[C@H]1OC(=O)c1cc(O)c(O)c(O)c1Oc1cc2c(c(O)c1O)-c1c(cc(O)c(O)c1O)C(=O)OC[C@H]1OC(O)[C@H](OC(=O)c3cc(O)c(O)c(O)c3O4)[C@@H](OC(=O)c3cc(O)c(O)c(O)c3)[C@@H]1OC2=O)c1cc(O)c(O)c(O)c1,DNA polymerase,-,IC50,-,-,Epstein-Barr virus,5.2 µg/mL
COc1ccc(S(=O)(=O)N(C[C@@H](O)[C@H](Cc2ccccc2)NC(=O)O[C@H]2CO[C@H]3OCC[C@H]32)CC(C)(C)CCNC(=O)NCC(N)=O)cc1,Protease,-,Ki,-,fluorescence,HIV-1,<0.001 µM
COc1ccc(S(=O)(=O)Nc2ccccc2-c2nc(C(=O)O)c(O)c(=O)[nH]2)cc1C(=O)O,HCV polymerase,-,IC50,-,-,Hepatitis C virus,<100 µM
COCCNC(=O)c1cc2nccc(-c3ccc(-c4ccc(OC)cc4)cc3)n2n1,RNA-dependent RNA polymerase,-,IC50,-,-,Hepatitis C virus,1–10 µM
CC(=O)CCC(C)(C)CN(C[C@@H](O)[C@H](Cc1ccccc1)NC(=O)O[C@H]1CO[C@H]2OCC[C@H]21)S(=O)(=O)c1cccc2c1OCCO2,Protease,-,Ki,-,fluorescence,HIV-1,<0.001 µM
COc1ccc(CC(=O)Nc2ccc(NC(=O)CSc3nnnn3-c3ccc(C(C)(C)C)cc3Cl)c(Cl)c2)cc1,Reverse transcriptase,WT,IC50,-,PicoGreen / fluorescence,HIV-1,<1 µM
C=C(C)OC(=O)NCCCC(C)(C)CN(C[C@@H](O)[C@H](Cc1ccccc1)NC(=O)O[C@H]1CO[C@H]2OCC[C@H]21)S(=O)(=O)c1ccc2c(c1)OCO2,Protease,-,Ki,-,fluorescence,HIV-1,<0.001 µM
CCCCC1Cn2ccc(=O)c(O)c2C(=O)N1Cc1ccc(Cl)c(Cl)c1,Integrase,-,IC50,-,ELISA,HIV-1,0.01–0.1 µM
CN(C)C(=O)NCCC(C)(C)CN(C[C@@H](O)[C@H](Cc1ccccc1)NC(=O)O[C@H]1CO[C@H]2OCC[C@H]21)S(=O)(=O)c1ccc2c(c1)OCO2,Protease,-,Ki,-,fluorescence,HIV-1,<0.001 µM
O=C(NCc1ccccc1)c1cn2c(c(O)c1=O)C(=O)N(Cc1cccc(Cl)c1)CC2,Integrase,-,IC50,-,ELISA,HIV-1,<0.01 µM
CCCCCCCCCCCCC/C=C/[C@@H](O)[C@H](CO[C@@H]1O[C@H](CO)[C@H](O)[C@H](OS(=O)(=O)O)[C@H]1O)NC(=O)CCCCCCCCCCCCCCCCCCCCCCC,Sialidase,H3N2 A/AICHI/2/2/68,inhibition,200 µM,-,Influenza A virus,58.6%
COc1ccc(N2CCN(c3cncc(-c4csc5ccccc45)n3)CC2)cc1,UL97 kinase,-,IC50,-,-,Cytomegalovirus,<10 µM
O=C(O)c1cnn2c(C3CCCCC3)c(-c3ccoc3)cnc12,RNA-dependent RNA polymerase,-,IC50,-,-,Hepatitis C virus,1–10 µM
CCCNC(=S)NCCCCC(C)(C)CN(C[C@@H](O)[C@H](Cc1ccccc1)NC(=O)O[C@H]1CO[C@H]2OCC[C@H]21)S(=O)(=O)c1ccc2c(c1)OCO2,Protease,-,Ki,-,fluorescence,HIV-1,<0.001 µM
CC(=O)c1ccc(-c2cc(N(C(=O)C3CCC(C)CC3)C(C)C)c(C(=O)O)s2)cc1,NS3 ATPase,-,IC50,-,-,Hepatitis C virus,<5 µM
O=C(O)c1cnn2c(C3CCCCC3)c(-c3ccccc3)cnc12,RNA-dependent RNA polymerase,-,IC50,-,-,Hepatitis C virus,1–10 µM
CCOc1ccc(-c2cncc(N3CCN(c4ccccc4F)CC3)n2)cc1,UL97 kinase,-,IC50,-,-,Cytomegalovirus,<100 µM
COc1ccc(OC)c(COc2cccc(-c3cnc4c(-c5nn[nH]n5)cnn4c3C3CCCCC3)c2)c1,RNA-dependent RNA polymerase,-,IC50,-,-,Hepatitis C virus,1–10 µM
COc1ccc(S(=O)(=O)N(C[C@@H](O)[C@H](Cc2ccccc2)NC(=O)OC(C)(C)C)CC(C)(C)CCCN=[N+]=[N-])cc1,Protease,-,Ki,-,fluorescence,HIV-1,<0.001 µM
Cc1ccc(-c2cncc(N3CCN(c4ccc(C)cc4)CC3)n2)cc1,UL97 kinase,-,inhibition,10 µM,-,Cytomegalovirus,>15%
COc1ccccc1NC(=S)NNC(=S)N/N=C(\C)c1ccccn1,Ribonucleotide reductase,-,IC50,-,-,Herpes simplex virus 1,>5 µM
COC(=O)NCCC(C)(C)CN(C[C@@H](O)[C@H](Cc1ccccc1)NC(=O)O[C@H]1CO[C@H]2OCC[C@H]21)S(=O)(=O)c1cccc(N)c1,Protease,-,Ki,-,fluorescence,HIV-1,<0.001 µM
COc1ccc(N2CCN(c3cncc(-c4ccccc4CO)n3)CC2)cc1OC,UL97 kinase,-,inhibition,10 µM,-,Cytomegalovirus,>15%
COC(=O)NCCCCC(C)(C)CN(C[C@@H](O)[C@H](Cc1ccccc1)NC(=O)OC1COCOC1)S(=O)(=O)c1ccc(N)cc1,Protease,-,Ki,-,fluorescence,HIV-1,<0.001 µM
C/C(=N\NC(=S)NNC(=S)NC12CC3CC(CC(C3)C1)C2)c1ccccn1,Ribonucleotide reductase,-,IC50,-,-,Herpes simplex virus 1,>5 µM
c1ccc(COc2ccc(-c3cnc4c(-c5nn[nH]n5)cnn4c3N3CCCCC3)cc2)cc1,RNA-dependent RNA polymerase,-,IC50,-,-,Hepatitis C virus,1–10 µM
CC(C)(CCOC(=O)NC1CC1)CN(C[C@@H](O)[C@H](Cc1ccccc1)NC(=O)O[C@H]1CO[C@H]2OCC[C@H]21)S(=O)(=O)c1ccc2c(c1)OCO2,Protease,-,Ki,-,fluorescence,HIV-1,<0.001 µM
C/C(=N\NC(=S)NNC(=S)Nc1cccnc1)c1ccccn1,Ribonucleotide reductase,-,IC50,-,-,Herpes simplex virus 1,>5 µM
CNc1cccc(S(=O)(=O)N(C[C@@H](O)[C@H](Cc2ccccc2)NC(=O)O[C@H]2CO[C@H]3OCC[C@H]32)CC(C)(C)CCN)c1,Protease,-,Ki,-,fluorescence,HIV-1,<0.001 µM
O=C(NCc1cccc(COCc2ccccc2)c1)Nc1ccsc1-c1nc(C(=O)O)c(O)c(=O)[nH]1,HCV polymerase,-,IC50,-,-,Hepatitis C virus,<25 µM
COC(=O)CCC(=O)NCCCCC(C)(C)CN(C[C@@H](O)[C@H](Cc1ccccc1)NC(=O)O[C@H]1CO[C@H]2OCC[C@H]21)S(=O)(=O)c1ccc2c(c1)OCO2,Protease,-,Ki,-,fluorescence,HIV-1,<0.001 µM
C/C(=N\NC(=S)NNC(=S)Nc1ccncc1)c1ccccn1,Ribonucleotide reductase,-,IC50,-,-,Herpes simplex virus 1,>5 µM
CC(=O)NCC(=O)NCCCCC(C)(C)CN(C[C@@H](O)[C@H](Cc1ccccc1)NC(=O)O[C@H]1CO[C@H]2OCC[C@H]21)S(=O)(=O)c1ccc2c(c1)OCO2,Protease,-,Ki,-,fluorescence,HIV-1,<0.001 µM
NC(=O)c1ccc(-c2cnc(N)c(N3CCN(c4ccncc4)CC3)n2)cc1,UL97 kinase,-,inhibition,1 µM,-,Cytomegalovirus,<50%
CNC(=O)NCCC(C)(C)CN(C[C@@H](O)[C@H](Cc1ccccc1)NC(=O)O[C@H]1CO[C@H]2OCC[C@H]21)S(=O)(=O)c1ccc(OC)cc1,Protease,-,Ki,-,fluorescence,HIV-1,<0.001 µM
Cc1ccc(-c2cc(N(C(=O)c3ccc(Cl)cc3Cl)C(C)C)c(C(=O)O)s2)s1,NS3 ATPase,-,IC50,-,-,Hepatitis C virus,<5 µM
FC(F)(F)c1ccc(-c2cncc(N3CCN(c4ccccc4)CC3)n2)cc1,UL97 kinase,-,IC50,-,-,Cytomegalovirus,<10 µM
CC(C)(CCNS(=O)(=O)c1ccccc1)CN(C[C@@H](O)[C@H](Cc1ccccc1)NC(=O)O[C@H]1CO[C@H]2OCC[C@H]21)S(=O)(=O)c1ccc2c(c1)OCO2,Protease,-,Ki,-,fluorescence,HIV-1,<0.001 µM